Measured values from several laboratories, pooled; numbers as filed in NIAID ChemDB.

Common to all: growth or infection tests; agent: Mycobacterium tuberculosis

ECn is the concentration giving n% inhibition of infection, replication or growth. Percent inhibition refers to the dose given; in toxicity tests it is the harm to the cells. A number after MIC or MFC names an inhibition level or a share of isolates. An empty or dashed field is not shown. MIC bound: limit read from a one-dose screen. Rows are shuffled and stem from different studies.

structure,read by,endpoint,dose,conditions,cells,strain or isolate,result
O=C1OCC(O)C(O)C(O)C(O)C1O,BACTEC,inhibition,12.5 µg/mL,-,-,H37Rv,12%
COc1ccc(CCC2CCc3ccccc3N2C)cc1OC,-,MIC,-,-,-,MT7,25 µg/mL
O=c1cc(-c2ccccc2)oc2c(O)c(O)cc(O)c12,BACTEC,inhibition,12.5 µg/mL,-,-,H37Rv,29%
Cc1ccc(S(=O)(=O)Nc2ccc3nc[nH]c3c2)cc1,-,MIC,-,-,-,H37Rv,>100 µg/mL
O=C(CNC(=O)C(CCC(=O)OCc1ccccc1)NC(=O)OCc1ccccc1)NCC(=O)NC(CO)C(=O)NCC(=O)Oc1ccc([N+](=O)[O-])cc1,BACTEC,inhibition,12.8 µg/mL,-,-,H37Rv,29%
CCCCCc1cc(OC)c2ccccc2n1,-,MIC,-,-,-,MT3,42 µg/mL
CCOC(=O)c1ccc(-c2ccc(C(=O)OCC)cc2N)c(N)c1,-,MIC,-,-,-,H37Rv,>100 µg/mL
NC1CCN(c2c(F)cc3c(=O)c(C(=O)O)cn(C4CC4)c3c2Cl)C1,-,MIC,-,-,-,ATCC 35820,0.125 µg/mL
COCC(=O)[O-].[Na+],-,MIC,-,-,-,H37Rv,>100 µg/mL
CN1C(=O)CN2CCc3ccccc3C2c2cc(Cl)ccc21,BACTEC,MIC bound,-,-,-,H37Rv,>12.5 µg/mL
CCN(CC)CCOC(N)=O,-,MIC,-,-,-,H37Rv,>100 µg/mL
OC(c1cc(-c2ccc(Cl)c(Cl)c2)nc2ccccc12)C1CCCCN1,-,MIC,-,-,VERO,H37Rv,3.13 µg/mL
O=[N+]([O-])c1cc(I)c(O)c(I)c1,-,MIC,-,-,-,H37Rv,>100 µg/mL
NC(=O)c1c(Cl)nc(-c2cccc([N+](=O)[O-])c2)c([N+](=O)[O-])c1C(F)(F)F,BACTEC,inhibition,12.5 µg/mL,-,-,H37Rv,-5%
CC(NNC(=O)c1ccncc1)c1cccc(C(F)(F)F)c1,-,MIC,-,-,-,Ethambutol-resistant,≤0.78 µg/mL
CCOC(=O)Nc1cc2c(cn1)N=C(CN(C)c1ccc(OC)cc1)CN2,-,EC50,-,-,-,H37Rv,>12.5 µg/mL
CC(CNC1CCCCCCC1)N[C@H]1C[C@H]2C[C@@H]([C@@H]1C)C2(C)C,-,MIC,-,-,-,-,12.5 µM
NC(=O)c1cnccn1,-,MIC,-,-,-,Isolate F57636 (INH RIF-resistant),>900 µg/mL
CCN(CC)c1ccc(N)c(CCNC(C)=O)c1.Cl,-,MIC,-,-,-,H37Rv,>100 µg/mL
CCOC(=O)Nc1cc(N)c2[nH]c(-c3ccccc3)nc2n1,-,EC50,-,-,-,H37Rv,>12.5 µg/mL
O=c1oc2cc(Cl)ccc2c(=O)n1-c1cccc([N+](=O)[O-])c1,-,MIC,-,-,-,CNCTC MY331/88,8 µM
O=C(N/N=C/c1cccc(F)c1)c1ccncc1,-,MIC,-,-,-,H37Rv (ethambutol-resistant),≤2 µg/mL
CCC1(c2ccc(N)c(N)c2)C(=O)NC(=O)NC1=O,-,MIC,-,-,-,H37Rv,>100 µg/mL
CC[C@H]1OC(=O)[C@H](C)[C@@H](O[C@H]2C[C@@](C)(OC)[C@@H](O)[C@H](C)O2)[C@H](C)[C@@H](O[C@@H]2O[C@H](C)C[C@H](N(C)C)[C@H]2O)[C@](C)(OC)C[C@@H](C)C(=O)[C@H](C)[C@@H](O)[C@]1(C)O,-,MIC50,-,-,-,MDR,8 µg/mL
O=C(NNCc1ccccc1)c1ccncc1,-,MIC,-,-,-,H37Rv (rifampin-resistant),1.95 µg/mL
CCOC(=O)Nc1cc2[nH]c(-c3cccc4ccccc34)nc2c(N(CCc2ccccc2)Cc2ccccc2)n1,-,EC50,-,-,-,H37Rv,<12.5 µg/mL
S=C=Nc1ccc(Br)c2ccccc12,-,MIC,-,-,-,H37Rv,25 µg/mL
CO[C@H]1/C=C/O[C@@]2(C)Oc3c(C)c(O)c4c(O)c(c(/C=N/N5CCN(C/C=C/c6ccccc6)CC5)c(O)c4c3C2=O)NC(=O)/C(C)=C\C=C\[C@H](C)[C@H](O)[C@@H](C)[C@@H](O)[C@@H](C)[C@H](OC(C)=O)[C@@H]1C,-,MIC,-,-,-,29 (rifampin-resistant),0.05 µg/mL
COc1cc(C(C)=O)cc(C(C)=O)c1,-,MIC,-,-,-,H37Rv,>100 µg/mL
Cc1nn(C(=O)c2ccncc2)c2c1C(c1ccccc1)SC(N)=N2,BACTEC,MIC bound,-,-,-,H37Rv,≤12.5 µg/mL
COc1ccc(O)c(C(=O)/C=C/c2ccco2)c1,-,inhibition,12.5 µg/mL,-,-,H37Rv,0%
Cc1cccc(C)c1NC(=O)C(=O)C(c1ccccc1Cl)S(=O)(=O)Cc1ccccc1Cl,BACTEC,inhibition,12.5 µg/mL,-,-,H37Rv,0%
CO[C@H]1/C=C/O[C@@]2(C)Oc3c(C)c(O)c4c(O)c(c5c(c4c3C2=O)NC2(CCN(CC(C)C)CC2)N=5)=NC(=O)/C(C)=C\C=C\[C@H](C)[C@H](O)[C@@H](C)[C@@H](O)[C@@H](C)[C@H](OC(C)=O)[C@@H]1C,-,MIC,-,-,-,Strain 63 (L521L),0.03 µg/mL
COc1ccc(CCNCCNCCC(c2ccccc2)c2ccccc2)cc1,-,MIC,-,-,-,-,50 µM
Nc1ccc2c(C(=O)O)cc(-c3ccccc3O)nc2n1,-,MIC,-,-,-,H37Rv,>100 µg/mL
COc1ccc(-n2c(=O)oc3ccc([N+](=O)[O-])cc3c2=O)cc1,-,MIC,-,-,-,CNCTC MY331/88,250 µM
CO[C@H]1/C=C/O[C@@]2(C)Oc3c(C)c(O)c4c(O)c(c(/C=N/N5CCN(C)CC5)c(O)c4c3C2=O)NC(=O)/C(C)=C\C=C\[C@H](C)[C@H](O)[C@@H](C)[C@@H](O)[C@@H](C)[C@H](OC(C)=O)[C@@H]1C,-,MIC,-,-,-,TN640,>32 µg/mL
O=C1c2ccccc2-c2nccc3c2c1nc1ccccc13,BACTEC,inhibition,12.5 µg/mL,-,-,H37Rv,99%
CCOC(=O)Nc1cc(NCc2ccccc2)c2[nH]cnc2n1,-,EC50,-,-,-,H37Rv,>12.5 µg/mL
N=C1C(=O)NC(=O)C1c1ccccc1,BACTEC,MIC bound,-,-,-,H37Rv,>12.5 µg/mL
O=c1oc2ccccc2c(=O)n1-c1cccc(F)c1,-,MIC,-,-,-,CNCTC MY331/88,31 µM
COc1cc(S(=O)(=O)O)ccc1N,-,MIC,-,-,-,H37Rv,>100 µg/mL
N#Cc1ccc(-n2c(=O)oc3ccc(F)cc3c2=O)cc1,-,MIC,-,-,-,CNCTC MY331/88,8 µM
COc1ccccc1NC(=O)/C(=C\n1c(=S)[nH]c2ccc([N+](=O)[O-])cc21)C(C)=O,resazurin,inhibition,6.25 µg/mL,-,-,H37Rv,-26%
C[C@@H]1CN(c2c(F)c(N)c3c(=O)c(C(=O)O)cn(C4CC4)c3c2F)C[C@H](C)N1,-,MBC,-,-,-,ATCC 35828,0.06 µg/mL
CCOC(=O)Nc1cc(NCC(=O)c2ccc(F)cc2)c([N+](=O)[O-])c(N)n1,-,EC50,-,-,-,H37Rv,>12.5 µg/mL
C[N+](C)=c1ccc2nc3c(cc(NCCCNc4cc5oc6cc(=[N+](C)C)ccc-6nc5c5ccccc45)c4ccccc43)oc-2c1.[Cl-].[Cl-],BACTEC,MIC,-,-,-,H37Rv,3.13 µg/mL
CC(C)c1ccc2c(c1)CC[C@H]1[C@](C)(CNCCNC3CCC3)CCC[C@]21C,-,MIC,-,-,-,-,50 µM
Nc1cc([As](=O)([O-])O)ccc1NCCO.[Na+],-,MIC,-,-,-,H37Rv,>100 µg/mL
O=C1CC(c2ccccc2O)Oc2ccccc21,-,inhibition,12.5 µg/mL,-,-,-,1%
CCCCC(CC)CN1CN(CC(CC)CCCC)CC(C)(NCCNCCCO)C1,-,MIC,-,-,-,-,12.5 µM
O=C(O)c1ccc(I)cc1O,-,MIC,-,-,-,H37Rv,>100 µg/mL
CCCCCCCCCCCNCCNCCCCO,-,MIC,-,-,-,-,50 µM
C/C(=N\NC(=O)c1ccncc1)c1ccc(F)cc1,colony count,EC90,-,inside macrophages,Macrophages,Erdman,0.038 µg/mL
O=C(O)CC(C(=O)O)c1ccccc1,-,MIC,-,-,-,H37Rv,>100 µg/mL
CO[C@H]1/C=C/O[C@@]2(C)Oc3c(C)c(O)c4c(=O)c(c5oc6cc(N7CCN(C(C)C)CC7)cc(=O)c6nc5c4c3=C2O)NC(=O)/C(C)=C\C=C\[C@H](C)[C@H](O)[C@@H](C)[C@@H](O)[C@@H](C)[C@H](OC(C)=O)[C@@H]1C,-,MBC,-,-,-,2847 (rifampin-sensitive),0.2 µg/mL
CC[C@@]1(O)C(=O)OCc2c1cc1n(c2=O)Cc2cc3cc(O)ccc3nc2-1,resazurin,inhibition,6.25 µg/mL,-,-,H37Rv,-9%
NCC[C@H](O)C(=O)N[C@@H]1C[C@H](N)[C@@H](O[C@H]2O[C@H](CN)[C@@H](O)[C@H](O)[C@H]2O)[C@H](O)[C@H]1O[C@H]1O[C@H](CO)[C@@H](O)[C@H](N)[C@H]1O,-,MIC,-,-,-,TN3360 (W),>256 µg/mL
C[C@H]1C[C@H](N)CN1c1cc2c(cc1F)c(=O)c(C(=O)O)cn2-c1ccc(F)cc1F,-,MIC90,-,-,-,MDR,>8 µg/mL
O=[N+]([O-])c1ccc2oc([N+](=O)[O-])cc2c1,resazurin,inhibition,6.25 µg/mL,-,-,H37Rv,100%
C=CCC(=O)O,-,MIC,-,-,-,H37Rv,>100 µg/mL
CCOC(=O)C(Nc1ccc(C)c(Cl)c1)C(=O)OCC,BACTEC,MIC bound,-,-,-,H37Rv,>12.5 µg/mL
O=C(CC(=O)c1ccccc1)Nc1ccc(NS(=O)(=O)c2ccccc2)cc1,-,MIC,-,-,-,H37Rv,>100 µg/mL
CC[C@H]1OC(=O)[C@H](C)[C@@H](O[C@H]2C[C@@](C)(OC)[C@@H](O)[C@H](C)O2)[C@H](C)[C@@H](O[C@@H]2O[C@H](C)C[C@H](N(C)C)[C@H]2O)[C@](C)(O)C[C@@H](C)CN(C)[C@H](C)[C@@H](O)[C@]1(C)O,-,MIC50,-,-,-,MDR,>8 µg/mL
COc1ccc(/C=C/C(=O)c2ccc(Cl)cc2O)cc1,-,EC50,-,-,-,-,<12.5 µg/mL
COc1cccc2c1oc1c(OC)ccc(N)c12,-,MIC,-,-,-,H37Rv,>100 µg/mL
CC(C)N=c1cc2n(-c3ccc(Cl)cc3)c3ccccc3nc-2cc1Nc1ccc(Cl)cc1,broth dilution / resazurin,MIC,-,-,-,MDR19,0.5 µg/mL
Nc1ccc(C(=O)O)c(Cl)c1,BACTEC,MIC bound,-,-,-,H37Rv,>12.5 µg/mL
CCN(CC)CCC1CCCCC1.Cl,-,MIC,-,-,-,H37Rv,>100 µg/mL
NNC(=O)CN(CC(=O)NN)N=O,BACTEC,MIC bound,-,-,-,H37Rv,>12.5 µg/mL
CC(CNCCc1ccccc1F)NC[C@@H]1CC[C@H]2C[C@@H]1C2(C)C,-,MIC,-,-,-,-,25 µM
NNC(=O)c1cccc2c1Oc1ccccc1S2,BACTEC,MIC,-,-,-,H37Rv,≥12.5 µg/mL
NC(CCCCNC(=O)c1ccccc1)C(=O)O,-,MIC,-,-,-,H37Rv,50 µg/mL
CC(NNC(=O)c1ccncc1)c1ccc(F)cc1,-,MIC,-,-,-,H37Rv (isoniazid-resistant),>31.25 µg/mL
CO[C@H]1/C=C/O[C@@]2(C)Oc3c(C)c(O)c4c(O)c(c(/C=N/N5CCN(C)CC5)c(O)c4c3C2=O)NC(=O)/C(C)=C\C=C\[C@H](C)[C@H](O)[C@@H](C)[C@@H](O)[C@@H](C)[C@H](OC(C)=O)[C@@H]1C,-,MIC,-,-,-,42494,≥2 µg/mL
O=C(/C=C/c1cc2ccccc2[nH]1)c1ccncc1,-,inhibition,12.5 µg/mL,-,-,-,12%
C/C(=N\NC(=O)c1ccncc1)c1ccccc1,colony count,EC50,-,inside macrophages,Macrophages,Erdman,<0.074 µg/mL
CN[C@@H]1[C@H](O[C@H]2[C@H](O[C@H]3[C@H](O)[C@@H](O)[C@H](N=C(N)N)[C@@H](O)[C@@H]3N=C(N)N)O[C@@H](C)[C@]2(O)C=O)O[C@@H](CO)[C@H](O)[C@H]1O,-,MIC,-,-,-,89996,≥2 µg/mL
Cc1ccc2c(c1)C1(SC(C)C(=O)N1c1ccc(Cl)cc1)C(=O)N2CN1CCOCC1,BACTEC,inhibition,12.8 µg/mL,-,-,H37Rv,-4%
CC(C)c1ccc2c(c1)CC[C@H]1[C@](C)(CNCCNCCc3ccc(O)c(O)c3)CCC[C@]21C,-,MIC,-,-,-,-,50 µM
O=c1cc[nH]c2ccc([N+](=O)[O-])cc12,-,MIC,-,-,-,H37Rv,25 µg/mL
Cc1ccc(S(=O)(=O)C(=S)N(C)N(C)C)cc1,-,MIC,-,-,-,INH-r,12.8 µg/mL
CCCCCNCCNCCc1ccccc1F,-,MIC,-,-,-,-,25 µM

10 of the rows above, restated:

| structure | read by | endpoint | dose | conditions | cells | strain or isolate | result |
|---|---|---|---|---|---|---|---|
| COCC(=O)[O-].[Na+] | - | MIC | - | - | - | H37Rv | >100 µg/mL |
| CCCCC(CC)CN1CN(CC(CC)CCCC)CC(C)(NCCNCCCO)C1 | - | MIC | - | - | - | - | 12.5 µM |
| O=C1CC(c2ccccc2O)Oc2ccccc21 | - | inhibition | 12.5 µg/mL | - | - | - | 1% |
| C=CCC(=O)O | - | MIC | - | - | - | H37Rv | >100 µg/mL |
| O=[N+]([O-])c1ccc2oc([N+](=O)[O-])cc2c1 | resazurin | inhibition | 6.25 µg/mL | - | - | H37Rv | 100% |
| CC(CNC1CCCCCCC1)N[C@H]1C[C@H]2C[C@@H]([C@@H]1C)C2(C)C | - | MIC | - | - | - | - | 12.5 µM |
| O=C(N/N=C/c1cccc(F)c1)c1ccncc1 | - | MIC | - | - | - | H37Rv (ethambutol-resistant) | ≤2 µg/mL |
| COc1ccc(CCNCCNCCC(c2ccccc2)c2ccccc2)cc1 | - | MIC | - | - | - | - | 50 µM |
| CO[C@H]1/C=C/O[C@@]2(C)Oc3c(C)c(O)c4c(O)c(c5c(c4c3C2=O)NC2(CCN(CC(C)C)CC2)N=5)=NC(=O)/C(C)=C\C=C\[C@H](C)[C@H](O)[C@@H](C)[C@@H](O)[C@@H](C)[C@H](OC(C)=O)[C@@H]1C | - | MIC | - | - | - | Strain 63 (L521L) | 0.03 µg/mL |
| COc1cccc2c1oc1c(OC)ccc(N)c12 | - | MIC | - | - | - | H37Rv | >100 µg/mL |